Anti-infective test results gathered from many reports (values: NIAID ChemDB through PubChem).

All rows: host cell toxicity; measure: CC50

CCn: concentration that lowers growth or viability of the cells by n%.

SMILES,method,cell line,value
CCN(CC)c1ccc2c(c1)Cc1cc(NC(N)=S)ccc1-2,MTS,Ava5-EG(delta4AB)SEAP,>1 µM
O=c1cc(CCc2ccccc2)c2cccnc2n1O,,HeLa,<100 µM
NC(=S)Nc1cccc(OCCCCCOc2cccc3ncccc23)c1,MTS,Ava5-EG(delta4AB)SEAP,>1 µM
CCOC(=O)CC(=O)NCC(OCC)(OCC)c1ccc2c(c1)OCO2,,HEK 293,<7.5 µM
CCOC(=O)C1=C(CN2CC(F)(F)[C@@H]3[C@H]2CON3C[C@@H](OC)C(C)(C)C(=O)O)NC(c2nccs2)=N[C@H]1c1cccc(F)c1C,WST / absorbance,HepG2.2.15,>50 µM
CC(CCOc1ccccc1)CCOc1cccc(NC(N)=S)c1,MTS,Ava5-EG(delta4AB)SEAP,>1 µM
O=C(NCCCCc1ccc2c(n1)NCCC2)NCc1ccc(Cl)c(Cl)c1,,PBMC,50 µM
NC(=S)Nc1ccc2c(c1)Cc1cc(NCCCc3ccccc3)ccc1-2,MTS,Ava5-EG(delta4AB)SEAP,>1 µM
COc1ccc(CNC(=O)NCCc2cccc(-n3ccnc3)n2)cc1,,PBMC,14.3 µM
CCOC(=O)C1=C(CN2CC(F)(F)[C@@H]3[C@H]2CON3C[C@H](O)C(C)(C)C(=O)O)NC(c2nccs2)=N[C@H]1c1cccc(F)c1Cl,WST / absorbance,HepG2.2.15,>100 µM
N#Cc1ccc(OCCCCCOc2cccc(NC(N)=S)c2)cc1,MTS,Ava5-EG(delta4AB)SEAP,>1 µM
CC(C)N(Cc1cccc(OCCCCCC(=O)OC(=O)O)c1)C(=O)c1ccc(-c2ccncc2)cc1,,HepG2,>20 µM
NC(=S)Nc1ccc2c(c1)Cc1cc(NC(N)=S)ccc1-2,MTS,Ava5-EG(delta4AB)SEAP,>1 µM
O=C(NCCCc1ccc2c(n1)NCCC2)Nc1ccc(F)c(C(F)(F)F)c1,,PBMC,17.6 µM
O=C(O)c1cc(-c2ccco2)nc2ccccc12,,HEK 293,>20 µM
CN(Cc1ccccc1)c1cc(=O)n(O)c2ncccc12,,HeLa,<100 µM
CCOC(=O)COc1ccccc1CN(C(=O)c1ccc(-c2ccc3c(c2)OCO3)cc1)C(C)C,,HEK 293,>20 µM
CCOC(=O)C1=C(CN2CC(F)(F)[C@H]3[C@@H]2CCN3C[C@@H](F)C(C)(C)C(=O)O)NC(c2nc(C)cs2)=N[C@H]1c1cccc(F)c1Cl,WST / absorbance,HepG2.2.15,29.8 µM
NC(=O)c1cccc(-c2cc(=O)n(O)c3ncccc23)c1,,HeLa,<100 µM
CC(C)(C)c1ccccc1NC(=O)NCCc1ccc2c(n1)NCCC2,,PBMC,0.45 µM
O=c1cc(N2CCN(Cc3ccccc3)CC2)c2cccnc2n1O,,HeLa,<100 µM
CN(C(=O)NCCc1ccc2c(n1)NCCC2)C1CCCCC1,,PBMC,50 µM
CCOC(=O)C1=C(CN2CC(F)(F)[C@@H]3[C@H]2CON3C[C@@H](O)[C@@H](CC)C(=O)O)NC(c2nccs2)=N[C@H]1c1cccc(F)c1C,WST / absorbance,HepG2.2.15,>100 µM

Again, the opening 2 rows:

SMILES	method	cell line	value
CCN(CC)c1ccc2c(c1)Cc1cc(NC(N)=S)ccc1-2	MTS	Ava5-EG(delta4AB)SEAP	>1 µM
O=c1cc(CCc2ccccc2)c2cccnc2n1O		HeLa	<100 µM

An empty or dashed field is not shown. Conditions beyond the fields shown may differ between rows.